Measured values from several laboratories, pooled; numbers as filed in NIAID ChemDB.

Common to all: whole-cell or culture tests; agent: Hepatitis B virus; cell line: HepG2.117; measure: EC50

An empty or dashed field is not shown. ECn: concentration that inhibits the pathogen or its effect by n%. Neighbouring rows are from separate reports. Two numbers with a dash give a range or band.

SMILES | read by | setting | value
CNC(=O)c1ccc(-n2c(=O)c3c(n4ncc(NCc5ccc(F)cc5)c24)CN(C(=O)c2ccc(Br)c(Cl)c2)CC3)cc1 | PCR | 3 d | <0.1 µM
Cn1cnc(-c2ccc([C@H]3CN(C(=O)Nc4ccc(F)c(Cl)c4)CCS3(=O)=O)s2)c1 | PCR | - | 0.5–5 µM
NC(=O)c1cccc(-n2c(C(=O)NCc3ccccc3)c3n(c2=O)CCN(C(=O)c2ccc(Br)c(Cl)c2)C3)c1 | PCR | - | >5 µM
C[C@H](c1cnc([C@@]2(F)CN(C(=O)c3ccc(Br)c(C#N)c3)CCS2(=O)=O)s1)c1ccccc1F | PCR | - | <0.1 µM
C[C@H]1Cc2c(n3ncc(CC4CCC4)c3n(-c3ccc(-c4nncn4C)cc3)c2=O)CN1C(=O)c1ccc(Br)c(C(F)(F)F)c1 | luminescence | - | 0.05–0.5 µM
CNC(=O)c1ccc(-n2c(=O)c3c(n4ncc(N[C@H](C)c5ccccc5)c24)CN(C(=O)c2ccc(Br)c(Cl)c2)CC3)cc1 | PCR | 3 d | 0.1–0.5 µM
N#Cc1cc(C(=O)N2CCS(=O)(=O)[C@@](F)(c3ncc(Cc4ccccc4-c4ncccn4)s3)C2)ccc1Br | PCR | - | <0.1 µM
CNC(=O)c1cnc(-n2c(=O)c3c(n4ncc(CC(C)C)c24)CN(C(=O)c2ccc(Br)c(C(F)(F)F)c2)[C@@H](C)C3)nc1 | luminescence | - | ≤0.05 µM
C[C@H](NC(=O)c1c2n(c(=O)n1-c1ccc(OC3CC3)cc1)CCN(C(=O)c1ccc(Br)c(Cl)c1)C2)c1ccc(C#N)cc1F | PCR | - | 0.1–0.5 µM
CNc1n[nH]c2cc(-n3c(=O)c4c(n5ncc(Cc6ccccc6)c35)CN(C(=O)c3ccc(Br)c(C(F)(F)F)c3)CC4)ccc12 | luminescence | - | ≤0.05 µM
CNC(=O)c1ccc(-n2c(=O)c3c(n4ncc(Cc5ccccc5)c24)CN(C(=O)c2ccc(Br)c(C#N)c2)CC3)cc1 | PCR | 3 d | <0.1 µM
C[C@@]1(C(=O)NCc2ccccc2)CN(C(=O)c2ccc(Br)c(Cl)c2)CCS1(=O)=O | PCR | - | 0.1–0.5 µM
CNC(=O)c1ccc(-n2c(=O)c3c(n4ncc(NCc5ccc(OCC(N)=O)cc5)c24)CN(C(=O)c2ccc(Br)c(Cl)c2)CC3)cc1 | PCR | 3 d | 0.1–0.5 µM
CC(C)(Oc1ccc(CNC(=O)c2c3n(c(=O)n2-c2ccc(OCC(F)(F)F)cc2)CCN(C(=O)c2ccc(Br)c(Cl)c2)C3)c(F)c1)C(N)=O | PCR | - | 0.1–0.5 µM
CNC(=O)c1ccc(-n2c(=O)c3c(n4ncc(NCc5ccc(OC(F)F)cc5)c24)CN(C(=O)c2ccc(Br)c(Cl)c2)CC3)cc1 | PCR | 3 d | <0.1 µM
CC1(c2nccs2)CN(C(=O)c2ccc(Br)c(Cl)c2)CCS1(=O)=O | PCR | - | 0.5–5 µM
CNC(=O)c1ccc(-n2c(=O)c3c(n4ncc(Cc5ccc(OC)cc5F)c24)CN(C(=O)c2ccc(Br)c(Cl)c2)CC3)cc1 | PCR | 3 d | <0.1 µM
Cc1nnc(-c2ccc(-n3c(=O)c4c(n5ncc(Cc6ccccc6)c35)CN(C(=O)c3ccc(Br)c(Cl)c3)CC4)cc2)n1C | luminescence | - | ≤0.05 µM
N#CCOc1ccc(CNC(=O)c2c3n(c(=O)n2-c2ccc(OC4CC4)cc2)CCN(C(=O)c2ccc(Br)c(Cl)c2)C3)c(F)c1 | PCR | - | 0.1–0.5 µM
CNC(=O)c1ccc(-n2c(=O)c3c(n4ncc(Nc5ccccc5)c24)CN(C(=O)c2ccc(Br)c(Cl)c2)CC3)cc1 | PCR | 3 d | <0.1 µM
COc1ccc(-n2c(C(=O)NCc3ccc(C#N)cc3)c3n(c2=O)CCN(C(=O)c2ccc(Cl)c(Cl)c2)C3)cc1 | PCR | - | >5 µM
C[C@H]1Cc2c(n3ncc(Cc4ccccc4)c3n(-c3ccc(-c4nncn4C)cc3)c2=O)CN1C(=O)c1ccc(Br)c(C(F)(F)F)c1 | luminescence | - | 0.05–0.5 µM
CNC(=O)c1ccc(-n2c(=O)c3c(n4ncc(NCc5ccc(OC(F)(F)F)cc5)c24)CN(C(=O)c2ccc(Cl)c(Cl)c2)CC3)cc1 | PCR | 3 d | 0.1–0.5 µM
C[C@H]1Cc2c(n3ncc(Cc4ccccc4)c3n(-c3ccc(-c4n[nH]c(C(F)(F)F)n4)cc3)c2=O)CN1C(=O)c1ccc(Br)c(C(F)(F)F)c1 | luminescence | - | 0.05–0.5 µM
N=S1(=O)CCN(C(=O)Nc2ccc(F)c(Cl)c2)CC1c1cccs1 | PCR | - | 0.5–5 µM
C[C@@H]1CN(c2ccc(-n3c(C(=O)NCc4ccccc4)c4n(c3=O)CCN(C(=O)c3ccc(Br)c(Cl)c3)C4)cc2)CCO1 | PCR | - | 0.1–0.5 µM
CNC(=O)c1cnc(-n2c(=O)c3c(n4ncc(Cc5ccccc5)c24)CN(C(=O)c2ccc(Br)c(C(F)(F)F)c2)[C@@H](C)C3)cn1 | luminescence | - | ≤0.05 µM

4 of the rows above, restated:

SMILES,read by,setting,value
CNC(=O)c1ccc(-n2c(=O)c3c(n4ncc(Cc5ccccc5)c24)CN(C(=O)c2ccc(Br)c(C#N)c2)CC3)cc1,PCR,3 d,<0.1 µM
CNC(=O)c1ccc(-n2c(=O)c3c(n4ncc(NCc5ccc(OCC(N)=O)cc5)c24)CN(C(=O)c2ccc(Br)c(Cl)c2)CC3)cc1,PCR,3 d,0.1–0.5 µM
C[C@H]1Cc2c(n3ncc(Cc4ccccc4)c3n(-c3ccc(-c4nncn4C)cc3)c2=O)CN1C(=O)c1ccc(Br)c(C(F)(F)F)c1,luminescence,-,0.05–0.5 µM
NC(=O)c1cccc(-n2c(C(=O)NCc3ccccc3)c3n(c2=O)CCN(C(=O)c2ccc(Br)c(Cl)c2)C3)c1,PCR,-,>5 µM